Compound potency records, mixed from different reports. Data source: NIAID ChemDB in PubChem.

Common to all: whole-cell or culture tests; agent: Hepatitis B virus; cells: HepG2.117; measure: EC50

Blank or dashed fields: not listed here. a–b is a range or a potency band. ECn is the concentration giving n% inhibition of infection, replication or growth. Neighbouring rows are from separate reports.

{"smiles": "O=C(c1ccc(Cl)c(F)c1)N1CCS(=O)(=O)[C@H](c2cccs2)C1", "read by": "PCR", "value": "0.5–5 µM"}
{"smiles": "Cc1cc(C)n(-c2nc3c(c(=O)n2-c2cnc4c(c2)ncn4C)C[C@@H](C)N(C(=O)c2ccc(Br)c(C(F)(F)F)c2)C3)n1", "strain": "Genotype D", "read by": "PCR", "value": "≤0.05 µM"}
{"smiles": "C=C[C@H](C)Nc1nc2c(c(=O)n1-c1ccc(C(=O)N(C)C(=O)O[C@H](C)OC(=O)[C@@H](N)C(C)C)cc1)C[C@@H](C)N(C(=O)c1ccc(Br)c(C(F)(F)F)c1)C2", "strain": "Genotype D", "read by": "PCR", "value": "<0.05 µM"}
{"smiles": "CC1Cc2c(n3ncc(CC4CC4)c3n(-c3ccc(C(=O)N(C)COC(=O)CN)cc3)c2=O)CN1C(=O)c1ccc(Br)c(C(F)(F)F)c1", "read by": "luminescence", "value": ">5 µM"}
{"smiles": "O=C(c1ccc(Cl)c(Cl)c1)N1CCc2nn3c(c2C1)-c1nccn1CCC3", "read by": "PCR", "value": "0.265 µM"}
{"smiles": "COc1ccc(-n2c(C(=O)NCc3ccc4[nH]c(=O)[nH]c4c3)c3n(c2=O)CCN(C(=O)c2ccc(Cl)c(Cl)c2)C3)cc1", "read by": "PCR", "value": ">5 µM"}
{"smiles": "CNC(=O)c1ccc(-n2c(=O)c3c(n4ncc(CC5CC5)c24)CN(C(=O)c2ccc(Br)c(C(F)(F)F)c2)[C@@H](C)C3)cc1", "read by": "luminescence", "value": "0.05–0.5 µM"}
{"smiles": "Cc1cc(C)n(-c2nc3c(c(=O)n2-c2cc(C)c4c(c2)ncn4C)C[C@@H](C)N(C(=O)c2ccc(Br)c(C(F)(F)F)c2)C3)n1", "strain": "Genotype D", "read by": "PCR", "value": "≤0.05 µM"}
{"smiles": "C[C@H]1Cc2c(n3ncc(Cc4ccccc4)c3n(-c3ccc(-c4noc(=O)n4C)cc3)c2=O)CN1C(=O)c1ccc(Br)c(C(F)(F)F)c1", "read by": "luminescence", "value": "0.05–0.5 µM"}
{"smiles": "CC(C)CC(=O)Nc1cnn2c3c(c(=O)n(-c4ccccc4)c12)CCN(C(=O)c1ccc(Cl)c(Cl)c1)C3", "read by": "PCR", "setting": "3 d", "value": ">5 µM"}
{"smiles": "CC(C)Cc1cnn2c3c(c(=O)n(-c4ccc(-c5nc(=O)on5C)cc4)c12)C[C@@H](C)N(C(=O)c1ccc(Br)c(C(F)(F)F)c1)C3", "read by": "luminescence", "value": "≤0.05 µM"}
{"smiles": "C=C[C@H](C)Nc1nc2c(c(=O)n1-c1ccc(C(=O)N(C)C(=O)OCOC(=O)/C=C/C(=O)O)cc1)C[C@@H](C)N(C(=O)c1ccc(Br)c(C(F)(F)F)c1)C2", "strain": "Genotype D", "read by": "PCR", "value": "<0.05 µM"}
{"smiles": "COc1ccc(-n2c(=O)c3c(n4ncc(NC(=O)C(C)C)c24)CN(C(=O)c2ccc(Cl)c(Cl)c2)CC3)cc1", "read by": "PCR", "setting": "3 d", "value": ">5 µM"}
{"smiles": "COc1ccc(CN2C/C=C\\Cn3c(c4n(c3=O)CCN(C(=O)c3ccc(Br)c(Cl)c3)C4)C2=O)cc1", "read by": "PCR", "value": "0.1–0.5 µM"}
{"smiles": "O=C(c1ccc(Br)c(Cl)c1)N1CCS(=O)(=O)C(c2nnco2)C1", "read by": "PCR", "value": "0.5–5 µM"}
{"smiles": "COc1ccc(-n2c(=O)c3c(n4ncc(NCc5ccccc5)c24)CN(C(=O)c2ccc(Cl)c(Cl)c2)CC3)cc1", "read by": "PCR", "setting": "3 d", "value": "<0.1 µM"}
{"smiles": "O=C(Nc1ccc(F)c(Cl)c1)N1CCS(=O)(=O)[C@H](c2ccccc2)C1", "read by": "PCR", "value": "0.5–5 µM"}
{"smiles": "Cc1cc(C)n(-c2nc3c(c(=O)n2-c2ncc(N)cn2)C[C@@H](C)N(C(=O)c2ccc(Br)c(C(F)(F)F)c2)C3)n1", "strain": "Genotype D", "read by": "PCR", "value": "≤0.05 µM"}
{"smiles": "COc1ccc(-n2c(C(=O)N[C@@H](C(=N)N)c3ccccc3)c3n(c2=O)CCN(C(=O)c2ccc(Br)c(Cl)c2)C3)cc1", "read by": "PCR", "value": ">5 µM"}
{"smiles": "C[C@@H]1Cc2nn3c(c2CN1C(=O)c1ccc(Cl)c(C#N)c1)C(=O)N([C@H](C)c1cccc(NS(C)(=O)=O)c1)CC3", "read by": "PCR", "value": "0.442 µM"}
{"smiles": "CNC(=O)c1ccc(-n2c(=O)c3c(n4ncc(Cc5ccc(F)cc5)c24)CN(C(=O)c2ccc(Br)c(Cl)c2)CC3)cc1", "read by": "PCR", "setting": "3 d", "value": "<0.1 µM"}
{"smiles": "C[C@@H]1Cc2nn3c(c2CN1C(=O)c1ccc(Cl)c(C#N)c1)C(=O)N([C@H](C)c1cccc(OC(F)(F)F)c1)CC3", "read by": "PCR", "value": "0.062 µM"}
{"smiles": "C[C@@]1(c2ncc(Cc3ccccc3)s2)CN(C(=O)c2ccc(Br)c(Cl)c2)CCS1(=O)=O", "read by": "PCR", "value": "0.5–5 µM"}
{"smiles": "Cc1nc(-c2ccc(-n3c(=O)c4c(n5ncc(CC(C)C)c35)CN(C(=O)c3ccc(Br)c(C(F)(F)F)c3)[C@H](C)C4)cc2)n[nH]1", "read by": "luminescence", "value": "≤0.05 µM"}
{"smiles": "Cc1cc(C)n(-c2nc3c(c(=O)n2-c2ccc(OC[C@H](C)O)nc2)C[C@@H](C)N(C(=O)c2ccc(Br)c(C(F)(F)F)c2)C3)n1", "strain": "Genotype D", "read by": "PCR", "value": "≤0.05 µM"}
{"smiles": "CCNC(=O)c1ccc(-n2c(=O)c3c(n4ncc(Cc5ccccc5)c24)CN(C(=O)c2ccc(Br)c(C#N)c2)CC3)cc1", "read by": "PCR", "setting": "3 d", "value": "0.5–5 µM"}
{"smiles": "COc1ccc(-n2c(C(=O)NCc3ccc(OC)cc3C3CC3)c3n(c2=O)CCN(C(=O)c2ccc(Br)c(Cl)c2)C3)cc1", "read by": "PCR", "value": "0.1–0.5 µM"}
{"smiles": "C=C[C@H](C)Nc1nc2c(c(=O)n1-c1ccc(C(=O)N(C)CO)cc1)C[C@@H](C)N(C(=O)c1ccc(Br)c(C(F)(F)F)c1)C2", "strain": "Genotype D", "read by": "PCR", "value": "<0.05 µM"}
{"smiles": "C[C@@H]1Cc2nn3c(c2CN1C(=O)c1ccc(Cl)c(C#N)c1)C(=O)N(Cc1ccc2n[nH]nc2c1)CC3", "read by": "PCR", "value": "0.56 µM"}
{"smiles": "Cc1cc(C)n(-c2nc3c(c(=O)n2-c2ccc(OC[C@H](C)OP(=O)(O)O)cc2)C[C@@H](C)N(C(=O)c2ccc(Br)c(C(F)(F)F)c2)C3)n1", "strain": "Genotype D", "read by": "PCR", "value": "0.05–0.5 µM"}
{"smiles": "C[C@@H]1Cc2nn3c(c2CN1C(=O)c1ccc(Cl)c(C#N)c1)C(=O)N([C@@H](C)c1cccc(NS(C)(=O)=O)c1)CC3", "read by": "PCR", "value": "0.24 µM"}
{"smiles": "COc1ccc(-n2c(-c3ccccn3)c3n(c2=O)CCN(C(=O)c2ccc(Br)c(Cl)c2)C3)cc1", "read by": "PCR", "value": ">5 µM"}
{"smiles": "C[C@@H]1Cc2nn3c(c2CN1C(=O)c1ccc(Cl)c(Cl)c1)C(=O)N([C@H](C)c1ccc(NS(C)(=O)=O)cc1)CC3", "read by": "PCR", "value": "0.061 µM"}
{"smiles": "O=C(c1ccc(Br)c(Cl)c1)N1CCS(=O)(=O)[C@H](c2ccccc2)C1", "read by": "PCR", "value": "0.5–5 µM"}
{"smiles": "C[C@@H]1Cc2nn3c(c2CN1C(=O)c1ccc(Cl)c(C#N)c1)C(=O)N([C@H](C)c1ccc(C(F)(F)F)cc1)CC3", "read by": "PCR", "value": "0.037 µM"}
{"smiles": "COc1ccc(-n2c(-c3ccccc3)nc3c(c2=O)C[C@@H](C)N(C(=O)c2ccc(Br)c(C(F)(F)F)c2)C3)cc1", "read by": "PCR", "value": ">0.5 µM"}
{"smiles": "COc1ccc(CNC(=O)c2c3n(c(=O)n2-c2ccc(OCC(F)(F)F)cc2)CCN(C(=O)c2ccc(Br)c(Cl)c2)C3)c(-n2cccn2)c1", "read by": "PCR", "value": "<0.1 µM"}
{"smiles": "Cc1cc(C)n(-c2nc3c(c(=O)n2-c2ccc(NC(C)C)nc2)C[C@@H](C)N(C(=O)c2ccc(Br)c(C(F)(F)F)c2)C3)n1", "strain": "Genotype D", "read by": "PCR", "value": "≤0.05 µM"}
{"smiles": "C=C[C@H](C)Nc1nc2c(c(=O)n1-c1ccc(C(=O)N(C)C(=O)O[C@H](OC(=O)[C@@H](N)C(C)C)C(C)C)cc1)C[C@@H](C)N(C(=O)c1ccc(Br)c(C(F)(F)F)c1)C2", "strain": "Genotype D", "read by": "PCR", "value": "<0.05 µM"}
{"smiles": "CNC(=O)c1ccc(-n2c(=O)c3c(n4ncc([C@@H](C)c5ccccc5)c24)CN(C(=O)c2ccc(Br)c(C#N)c2)CC3)cc1", "read by": "PCR", "setting": "3 d", "value": "<0.1 µM"}
{"smiles": "C[C@@H]1Cc2c(n3ncc(Cc4ccccc4)c3n(-c3ccc(-c4nn[nH]n4)cc3)c2=O)CN1C(=O)c1ccc(Br)c(C(F)(F)F)c1", "read by": "luminescence", "value": "0.5–5 µM"}
{"smiles": "C[C@@H]1Cc2nn3c(c2CN1C(=O)c1ccc(Cl)c(C#N)c1)C(=O)N([C@@H](C)c1ccc(S(F)(F)(F)(F)F)cc1)CC3", "read by": "PCR", "value": "0.065 µM"}
{"smiles": "C[C@@H]1Cc2nn3c(c2CN1C(=O)c1ccc(Cl)c(C#N)c1)C(=O)N([C@H](C)c1cccc(OC(F)F)c1)CC3", "read by": "PCR", "value": "0.082 µM"}
{"smiles": "CNC(=O)c1ccc(-n2c(-n3cc(C4CC4)cn3)nc3c(c2=O)C[C@@H](C)N(C(=O)c2ccc(Br)c(C(F)(F)F)c2)C3)cc1", "read by": "PCR", "value": ">0.05 µM"}
{"smiles": "Cc1cc(C)n(-c2nc3c(c(=O)n2-c2cc(F)c4c(c2)ncn4C)C[C@@H](C)N(C(=O)c2ccc(Br)c(C(F)(F)F)c2)C3)n1", "strain": "Genotype D", "read by": "PCR", "value": "≤0.05 µM"}
{"smiles": "CNC(=O)c1ccc(-n2c(=O)c3c(n4ncc(NC(C)c5ccccc5)c24)CN(C(=O)c2ccc(Br)c(C#N)c2)CC3)cc1", "read by": "PCR", "setting": "3 d", "value": "0.1–0.5 µM"}
{"smiles": "CNC(=O)c1ccc(-n2c([C@@H]3CCCN3C(C)C)nc3c(c2=O)C[C@@H](C)N(C(=O)c2ccc(Br)c(C(F)(F)F)c2)C3)cc1", "read by": "PCR", "value": ">0.5 µM"}
{"smiles": "C[C@@H]1Cc2nn3c(c2CN1C(=O)c1ccc(Cl)c(C#N)c1)C(=O)N([C@@H](C)c1ccc(OC(F)(F)F)cc1)CC3", "read by": "PCR", "value": "0.077 µM"}
{"smiles": "Cc1cc(C)n(-c2nc3c(c(=O)n2-c2ccc(N4CCOCC4)nc2)C[C@@H](C)N(C(=O)c2ccc(Br)c(C(F)(F)F)c2)C3)n1", "strain": "Genotype D", "read by": "PCR", "value": "≤0.05 µM"}
{"smiles": "O=C(c1ccc(Br)c(Cl)c1)N1CCS(=O)(=O)[C@@](F)(c2ncc(Cc3ccccc3-c3ncccn3)s2)C1", "read by": "PCR", "value": "<0.1 µM"}

Again, the opening 5 rows:

| smiles | strain | read by | setting | value |
|---|---|---|---|---|
| O=C(c1ccc(Cl)c(F)c1)N1CCS(=O)(=O)[C@H](c2cccs2)C1 |  | PCR |  | 0.5–5 µM |
| Cc1cc(C)n(-c2nc3c(c(=O)n2-c2cnc4c(c2)ncn4C)C[C@@H](C)N(C(=O)c2ccc(Br)c(C(F)(F)F)c2)C3)n1 | Genotype D | PCR |  | ≤0.05 µM |
| C=C[C@H](C)Nc1nc2c(c(=O)n1-c1ccc(C(=O)N(C)C(=O)O[C@H](C)OC(=O)[C@@H](N)C(C)C)cc1)C[C@@H](C)N(C(=O)c1ccc(Br)c(C(F)(F)F)c1)C2 | Genotype D | PCR |  | <0.05 µM |
| CC1Cc2c(n3ncc(CC4CC4)c3n(-c3ccc(C(=O)N(C)COC(=O)CN)cc3)c2=O)CN1C(=O)c1ccc(Br)c(C(F)(F)F)c1 |  | luminescence |  | >5 µM |
| O=C(c1ccc(Cl)c(Cl)c1)N1CCc2nn3c(c2C1)-c1nccn1CCC3 |  | PCR |  | 0.265 µM |